Results of unrelated studies side by side (data: NIAID ChemDB).

Common to all: toxicity to cultured cells; cell line: HepG2; endpoint: CC50

Blank or dashed fields: not listed here.

compound	method	value
COc1cccc(Oc2ccc3c(NCCCNCc4cc(F)ccc4OC)ccnc3c2)c1	fluorescence	7.1 µM
CCOC(=O)CCCCCOc1cccc(CN(C(=O)c2ccc(-c3cccc(OC(C)C)c3)cc2)C(C)C)c1		>20 µM
Cc1cc(NC(=O)c2c3c(c(C)n2C)C(=O)NC(C)(C)CC3)ccc1F	MTT	>30 µM
Fc1ccc(-c2ccc3c(NCCCNCc4ccco4)ccnc3c2)cc1	fluorescence	7.76 µM
CNC(=O)c1ccc(-n2c([C@@H]3CC3(F)F)nc3c(c2=O)C[C@@H](C)N(C(=O)c2ccc(Cl)c(C(F)(F)F)c2)C3)cc1	luminescence	27 µM
Cc1cc(NC(=O)c2c(C)c(C(=O)C(=O)NC3CCC(O)CC3)n(C)c2C2CCCC2)ccc1F	MTT	>30 µM
COc1ccc(F)cc1CNCCCNc1ccnc2cc(CC(C)C)ccc12	fluorescence	2.9 µM
Cc1cc(NC(=O)c2c(C3CC3)c(C(=O)C(=O)NC3CCC(O)CC3)n(C)c2C)ccc1F	MTT	>30 µM
Cc1nnc(C2CCC(n3c(NC(C)C)nc4c(c3=O)C[C@@H](C)N(C(=O)c3ccc(Cl)c(C(F)(F)F)c3)C4)CC2)o1	luminescence	>50 µM
FC(F)(F)c1cccc(Cc2ccc3c(NCCCNCc4ccco4)ccnc3c2)c1	fluorescence	3.19 µM
Cc1cc(NC(=O)c2c3c(C)c(C)[nH]c(=O)c3c(C)n2C)ccc1F	MTT	5–30 µM
CCC1(NC(=O)C(=O)c2c(C)c(C(=O)Nc3ccc(F)c(C)c3)c(C)n2C)CCN(c2cccnn2)CC1	MTT	>30 µM
CCOC(=O)COc1ccc(C=O)cc1		>20 µM
Cc1c(C(=O)Nc2ccc(F)c(C(N)=O)c2)c(C)n(C)c1C(=O)C(=O)NC(C)(C)C	MTT	>30 µM
CC(C)N(Cc1cccc(OCCCCCC(=O)OC(=O)O)c1)C(=O)c1ccc(-c2ccncc2)cc1		>20 µM
Cc1c2c(c(C(=O)Nc3ccc(F)c(C(F)F)c3)n1C)CCC(C)(C)NC2=O	MTT	>30 µM
CCOC(=O)CC(=O)NCC(OCC)(OCC)c1ccc2c(c1)OCO2		<7.5 µM
CNC(=O)[C@@H]1CC[C@H](n2c(NC(C)C)nc3c(c2=O)C[C@@H](C)N(C(=O)c2ccc(Br)c(C(F)(F)F)c2)C3)C1	luminescence	16.3 µM
CCOC(=O)CCCCCOc1cccc(CN(C(=O)c2ccc(-c3cccc(C(C)=O)c3)cc2)C(C)C)c1		>20 µM
CCC(CC)c1ccc2c(NCCCNCc3cc(F)ccc3OC)ccnc2c1	fluorescence	7.86 µM
CC(C)N(Cc1ccccc1)C(=O)c1ccc(-c2ccc3c(c2)OCO3)cc1		>20 µM
Cc1cc(NC(=O)c2c(C)c(C(=O)C(=O)NC3(C)CC(O)C3)n(C)c2-c2ccsc2)ccc1F	MTT	5–30 µM
CNC(=O)c1ccc(-n2c(NC(C)C)nc3c(c2=O)C[C@@H](C)N(C(=O)c2ccc(Br)c(C(F)(F)F)c2)C3)cc1	luminescence	>50 µM
CCOC(=O)CCCCCOc1cccc(C=O)c1		>20 µM
CNC(=O)c1c(Cl)c(-n2c([C@H](O)C(C)C)nc3c(c2=O)C[C@@H](C)N(C(=O)c2ccc(Br)c(C(F)(F)F)c2)C3)nn1C	luminescence	29 µM
Cc1cc(NC(=O)c2c(C)c(C(=O)C(=O)NC3(CC(=O)O)CCNCC3)n(C)c2C)ccc1F	MTT	>30 µM
CNC(=O)c1ccc(-n2c(NC(C)C)nc3c(c2=O)C[C@@H](C)N(C(=O)c2ccc(Cl)c(C(F)(F)F)c2Cl)C3)c(C(F)F)c1	luminescence	21 µM
Cc1cc(F)cc(NC(=O)c2c3c(c(C)n2C)C(=O)NC(C)(C)CC3)c1	MTT	>30 µM

3 of the rows above, restated:

CCOC(=O)CCCCCOc1cccc(CN(C(=O)c2ccc(-c3cccc(OC(C)C)c3)cc2)C(C)C)c1 ; value: >20 µM
Cc1c2c(c(C(=O)Nc3ccc(F)c(C(F)F)c3)n1C)CCC(C)(C)NC2=O ; method: MTT ; value: >30 µM
COc1cccc(Oc2ccc3c(NCCCNCc4cc(F)ccc4OC)ccnc3c2)c1 ; method: fluorescence ; value: 7.1 µM

CCn: concentration that lowers growth or viability of the cells by n%. Conditions beyond the fields shown may differ between rows. Two numbers with a dash give a range or band.